For the experiment, the target named is SEB (Staphylococcus aureus, UniProt P01552). Briefly: SPR: binding of SEB to immobilized CD28 dimer interface peptides. The conditions noted are these: Table S1, Figure 5C,D, immobilized peptide, analyte recombinant SEB, 25°C, pH 7.4, n=3.

2 compounds from publication PMC3172200 (2011) can be followed below.

For `CSCC[C@H](NC(=O)[C@@H]1CCCN1C(=O)[C@H](CO)NC(=O)[C@@H](N)CS)C(=O)N[C@@H](CC(C)C)C(=O)N[C@H](C(=O)N[C@@H](C)C(=O)N[C@@H](Cc1ccc(O)cc1)C(=O)N[C@@H](CC(=O)O)C(=O)N[C@@H](CS)C(=O)O)C(C)C`, the ka is 279 M⁻¹ s⁻¹.

With `CC(C)C[C@H](NC(=O)[C@H](Cc1c[nH]cn1)NC(=O)[C@H](CCCCN)NC(=O)CNC(=O)[C@H](CCCCN)NC(=O)[C@@H](NC(=O)[C@H](Cc1c[nH]cn1)NC(=O)[C@@H](N)CS)C(C)C)C(=O)N[C@@H](CS)C(=O)N1CCC[C@H]1C(=O)N[C@@H](CS)C(=O)O`, the kd worked out at 0.000819 s⁻¹.
